Pooled drug test results. Numbers come from NIAID ChemDB, via PubChem.

All rows: tests in culture; agent: Mycobacterium tuberculosis

Conditions beyond the fields shown may differ between rows.

smiles | strain | method | dose | cell line | mutations | read-out | result
Cc1cc2nc3c(=O)[nH]c(=O)nc-3n(CC=O)c2cc1C | H37Rv | BACTEC | 6.25 µg/mL |  |  | inhibition | 0%
Cc1ccc(CSc2ncccn2)cc1 | H37Ra |  |  |  |  | MIC | >12.8 µg/mL
Brc1ccc(Nc2nnc(CCON=C(c3ccccc3)c3ccccc3)o2)cc1 |  |  | 12.5 µg/mL |  |  | inhibition | 7–56%
COc1ccc(C2SC(C)C(=O)N2NC(=O)COc2ccc(NC(C)=O)cc2)cc1OC | H37Rv |  |  |  |  | EC50 | >12.5 µg/mL
CC(=O)CCCCC(=O)Nc1ccc(CC(NC(=O)OC(C)(C)C)C(=O)NCC(=O)OCc2ccccc2)cc1 | H37Rv | resazurin |  |  |  | MIC bound | >6.25 µg/mL
CCCCOc1ccccc1NC(=O)OCCN(C)C | My 331/88 |  |  |  |  | MIC | 250 µM
COc1ccc2cc1-c1cc(cc(Br)c1O)C[C@H]1c3cc4c(cc3CCN1C)Oc1c(OC)cc3c(c1O4)[C@H](C2)N(C)CC3 | H37Rv-PZA-R ATCC 35828 | resazurin |  |  |  | MIC | 3.1 µg/mL
CCSC1OC(C(COC(C)=O)OC(C)=O)C(OC(C)=O)C1NC(=O)OCc1ccccc1 | H37Rv | BACTEC |  |  |  | MIC bound | >12.5 µg/mL
CCOC(=O)c1ccc2nc(-c3ccc(Br)cc3)[nH]c2c1 | H37Rv | resazurin / fluorescence |  |  |  | EC50 | >100 µM
CCCCOc1ccccc1NC(=O)OCCN1CCCCC1 | My 331/88 |  |  |  |  | MIC | 250 µM
CO[C@H]1/C=C/O[C@@]2(C)Oc3c(C)c(O)c4c(O)c(c(/C=N/N5CCN(C)CC5)c(O)c4c3C2=O)NC(=O)/C(C)=C\C=C\[C@H](C)[C@H](O)[C@@H](C)[C@@H](O)[C@@H](C)[C@H](OC(C)=O)[C@@H]1C | M5 | resazurin |  |  | MDR | MIC | >2 µg/mL
C/C=C(\C)c1cc(=O)c2c(C)cc3c(c2o1)C(=O)c1c(O)c([C@H]2C[C@](C)(N(C)C)[C@H](OC(C)=O)[C@H](C)O2)cc([C@H]2C[C@@H](N(C)C)[C@H](OC(C)=O)[C@@H](C)O2)c1C3=O | H37Rv | BACTEC | 12.5 µg/mL |  |  | inhibition | 7%
CCc1nc2ccccc2n1CCCCOc1cccc(C)c1 | H37Rv | turbidity / fluorescence |  |  | QcrB M342T | MIC90 | 16 µM
CCCOc1ccccc1NC(=O)OCCN1CCCCC1 | My 331/88 |  |  |  |  | MIC | 600 µM
COc1c(O)cc2oc3cc(O)c(CCC(C)C)c(O)c3c(=O)c2c1CCC(C)C | M27 | resazurin |  |  | MDR | MIC | 3.12 µg/mL
C/C(=N\OCCc1nnc(N)o1)c1ccccc1 |  |  | 12.5 µg/mL |  |  | inhibition | 7–56%
CC(C)C(O)(C(=O)OCC1=CCN2CCC(O)C12)C(C)O | H37Rv | BACTEC |  |  |  | MIC bound | >12.8 µg/mL
C/C(=N\OCc1nnc(-c2ccc(Cl)cc2)o1)c1ccccc1 |  |  | 12.5 µg/mL |  |  | inhibition | 7–56%
CCOC(=O)c1ccc2c(c1)nc(-c1ccc(OC)cc1)n2CCN1CCCOC1 | H37Rv | resazurin / fluorescence |  |  |  | MIC | >100 µM
NNC(=O)c1ccncc1 | M22 | resazurin |  |  | MDR | MIC | 2 µg/mL
OC1C(O)C(O)C(O)C(O)C1O | H37Rv | BACTEC |  |  |  | MIC bound | >12.5 µg/mL
CCc1nc2ccc(C)cc2n1CCCCOc1ccccc1 | H37Rv | turbidity / fluorescence |  |  | QcrB M342T | MIC90 | 73 µM
CCCCCS(=O)(=O)Nc1ccc2[nH]c(C(=O)OCC)c(C)c2c1 | H37Rv | resazurin |  |  |  | MIC90 | 0.049 µM
CC(=O)Nc1ccc(OCC(=O)N/N=C/c2ccco2)cc1 | H37Rv |  | 12.5 µg/mL |  |  | inhibition | 15%
CCC1CCC(=NNC(=O)Cc2csc3nc(-c4ccc(Cl)cc4)cn23)CC1 | H37Rv |  |  |  |  | EC50 | <6.25 µg/mL
Cc1c(CSc2nc(=O)[nH]c3nc[nH]c23)cccc1[N+](=O)[O-] | H37Rv |  |  |  |  | MIC90 | >6.25 µg/mL
C[C@@]1(CO)[C@H]2[C@@H](O)C[C@@H]3C[C@H]4C[C@@]3(CC[C@@]4(O)CO)[C@]2(C)CC[C@@H]1O | H37Rv | BACTEC | 12.5 µg/mL |  |  | inhibition | 0%
O=c1nc(SCc2ccccc2Cl)c2[nH]cnc2[nH]1 | H37Ra |  |  |  |  | MIC | 16 µg/mL
O=C1c2ccc([N+](=O)[O-])cc2NC(O)c2cccn21 | H37Rv | BACTEC |  |  |  | MIC bound | >12.5 µg/mL
CCCCCCCCCCOc1ccccc1NC(=O)OCCN1CCOCC1 | My 331/88 |  |  |  |  | MIC | 16 µM
Cc1ccc(C)c(Sc2ccncc2)c1 | H37Ra |  |  |  |  | MIC | >12.8 µg/mL
CCCCS(=O)(=O)Nc1ccc2[nH]c(C(=O)N3CCOCC3)c(C)c2c1 | H37Rv | resazurin |  |  |  | MIC90 | 12.5 µM
CCc1nc2ccc(C)cc2n1CCCNc1ccc(C)cc1 | H37Rv | turbidity / fluorescence |  |  |  | MIC99 | 0.066 µM
COc1cc2c3c(c1OC)-c1cc4c(cc1CC3N(C=O)CC2)OCO4 | MTY147 | resazurin |  |  |  | MIC | >50 µg/mL
S=c1[nH][nH]c(=S)s1 | H37Rv | BACTEC | 12.5 µg/mL |  |  | inhibition | 8%
CC(=O)Nc1ccc(OCC(=O)NN2C(=O)C(C)SC2c2cccc([N+](=O)[O-])c2)cc1 | H37Rv |  |  |  |  | EC50 | >12.5 µg/mL
O=C(O)c1ccccc1/C=N/Nc1ccccn1 | H37Rv | BACTEC |  |  |  | MIC bound | >12.5 µg/mL
CCOC(=O)c1ccc2nc(-c3ccc(OC(F)(F)F)cc3)[nH]c2c1 | H37Rv | resazurin / fluorescence |  |  |  | MIC | >100 µM
CCc1nc2ccccc2n1CCCCNc1ccc(OC)cc1 | H37Rv | turbidity / fluorescence |  |  |  | MIC90 | >100 µM
O=C(C[n+]1cccc(C(=O)Nc2ccccc2)c1)Nc1ccc(Cl)cc1.[Cl-] | H37Rv | BACTEC | 12.5 µg/mL |  |  | inhibition | -3%
CC1CCCC2(C1)SCC(=O)N2NC(=O)Cc1csc2nc(-c3ccc(Cl)cc3)cn12 | H37Rv |  | 6.25 µg/mL |  |  | inhibition | 36%
CC#CC#C/C=C1\C=CC2(OC=CC2OC(C)=O)O1 | KM-R |  |  |  |  | MIC | 12.5 µg/mL
C=CCOc1cc2oc3cc(O)c(CCC(C)C)c(O)c3c(=O)c2c(CCC(C)C)c1OC | H37Rv | resazurin |  |  |  | MIC | 3.12 µg/mL
CCOC(=O)c1ccc2c(c1)nc(-c1ccc(O)cc1)n2CCN1CCCC1=O | H37Rv | resazurin / fluorescence |  |  |  | EC90 | >100 µM
COc1ccc2cc1-c1cc(ccc1O)C[C@H]1c3cc4c(cc3CCN1C)Oc1c(OC)cc3c(c1O4)[C@@H](C2)N(C)CC3 | H37Ra | resazurin |  |  |  | MIC | 3.1 µg/mL
COc1c(O)cc2oc3cc(O)c(CC=C(C)C)c(O)c3c(=O)c2c1CC=C(C)C | CS-R |  |  |  |  | MIC | 12.8 µg/mL
C/C(=N\OCc1nnc(-c2ccc(C)cc2)o1)c1ccccc1 |  |  | 12.5 µg/mL |  |  | inhibition | 7–56%
O=c1nc(SCc2ccccn2)c2[nH]cnc2[nH]1 | H37Rv |  |  |  |  | MIC90 | >6.25 µg/mL
CCOC(=O)c1nc(SC)sc1NC(=O)c1ccc(OC)cc1 | H37Rv | BACTEC |  |  |  | MIC bound | >12.5 µg/mL
CCC1CCC2(CC1)SC(C)C(=O)N2NC(=O)Cc1csc2nc(-c3ccc(Cl)cc3)cn12 | H37Rv |  |  | VERO |  | EC50 | <6.25 µg/mL
COc1ccc(N(Cc2ccc(C)o2)C(=S)Nc2ccccc2)cc1 | H37Rv | BACTEC |  |  |  | MIC bound | >12.5 µg/mL
O=C(Cc1csc2nc(-c3ccccc3)cn12)NN=C1CCCC1 | H37Rv |  |  |  |  | MIC | >6.25 µg/mL
CCOC(=O)c1ccc2c(c1)nc(-c1cccc(-c3ccc(F)cc3)c1)n2CCN1CCCOC1 | H37Rv | resazurin / fluorescence |  |  |  | EC90 | >100 µM
CCCCCCCOc1cccc(NC(=O)OCCN2CCCCC2)c1 | My 331/88 |  |  |  |  | MIC | 16 µM
CC1SC2(CCCCC2)N(NC(=O)Cc2csc3nc(-c4ccc(Cl)cc4)cn23)C1=O | H37Rv |  | 6.25 µg/mL |  |  | inhibition | 91%
Clc1ccc(-c2nnc(CCON=C(c3ccccc3)c3ccccc3)o2)cc1 |  |  | 12.5 µg/mL |  |  | inhibition | 7–56%
CCOc1cc2oc3cc(=O)/c(=C(\C)O)c(CCC(C)C)c3c(O)c2c(=O)c1CCC(C)C | H37Ra | resazurin |  |  |  | MIC | 12.5 µg/mL
CN(C)CCOc1ccc2c(c1)C/C(=C\c1ncc([N+](=O)[O-])n1C)C2=O | H37Rv | resazurin | 6.25 µg/mL |  |  | inhibition | 28%
Clc1nc(Sc2ccccn2)c2[nH]cnc2n1 | H37Ra |  |  |  |  | MIC | >12.8 µg/mL
COc1cc2oc3cc(O)c(CCC(C)C)c(O)c3c(=O)c2c(CCC(C)C)c1OC | M5 | resazurin |  |  |  | MIC | 1.56 µg/mL
Cn1cc(NC(=O)c2cc(NC(=O)CCCCCCCCC(=O)Nc3cc(C(=O)Nc4cc(C(=O)NCCC(=N)N)n(C)c4)n(C)c3)cn2C)cc1C(=O)NCCC(=N)N | H37Rv |  |  | VERO |  | MIC | 0.45 µg/mL
CCCCS(=O)(=O)Nc1ccc2[nH]c(C#N)c(C)c2c1 | DRM167 8x3 | resazurin |  |  | I145T DG167-resistant | MIC90 | >100 µM
c1ccc(CNc2nnc(CON=C(c3ccccc3)c3ccccc3)o2)cc1 |  |  | 12.5 µg/mL |  |  | inhibition | 7–56%
CCCCCCCCCCOc1cccc(NC(=O)OCCN2CCOCC2)c1 | My 331/88 |  |  |  |  | MIC | 16 µM
CC1CCCC2(C1)SCC(=O)N2NC(=O)Cc1csc2nc(-c3ccccc3)cn12.O | H37Rv |  |  |  |  | EC50 | <6.25 µg/mL
CCc1nc2ccc(C)cc2n1CCCNc1ccc(C)cc1C | H37Rv | turbidity / fluorescence |  |  | QcrB M342T | MIC90 | 6.2 µM
CCCCCCOc1ccc(NC(=O)OCCN2CCCCC2)cc1 | My 331/88 |  |  |  |  | MIC | 16 µM
CCCCS(=O)(=O)Nc1ccc2[nH]c(C(=O)OCC)c(C)c2c1 | DRM167 8x2 | resazurin |  |  | A119T DG167-resistant | MIC90 | >100 µM
COC(=O)/C(=N\O)C(C(=O)C=C(C)C)C(=O)C(=O)Nc1nc2ccc([N+](=O)[O-])cc2s1 | H37Rv | resazurin |  |  |  | MIC bound | >6.25 µg/mL
C=CCNc1nnc(CCON=C(c2ccccc2)c2ccccc2)o1 |  |  | 12.5 µg/mL |  |  | inhibition | 7–56%
CCOC(=O)c1ccc2c(c1)nc(-c1ccc(C(F)(F)F)cc1)n2CCN1CCCC1=O | H37Rv | resazurin / fluorescence |  |  |  | MIC | >100 µM
CC(=O)Nc1ccc(OCC(=O)NN2C(=O)C(C)SC2c2ccc(Cl)cc2Cl)cc1 | H37Rv |  | 12.5 µg/mL |  |  | inhibition | 0%
CCCCOc1ccc(NC(=O)OCC[NH+]2CCCC2)cc1 | My 331/88 |  |  |  |  | MIC | 250 µM
CCc1nc2ccc(C)cc2n1CCCNc1ccc(Br)c(C)c1 | H37Rv | turbidity / fluorescence |  |  | Rv1339 V90M | MIC90 | 0.62 µM
CCCCCS(=O)(=O)Nc1ccc2[nH]c(C(=O)NC(C)(C)c3ccccc3)c(C)c2c1 | H37Rv | resazurin |  |  |  | MIC90 | 6.25 µM
CN[C@@H]1[C@H](O[C@H]2[C@H](O[C@H]3[C@H](O)[C@@H](O)[C@H](N=C(N)N)[C@@H](O)[C@@H]3N=C(N)N)O[C@@H](C)[C@]2(O)C=O)O[C@@H](CO)[C@H](O)[C@H]1O | M5 | resazurin |  |  | MDR | MIC | >8 µg/mL
Cc1ccccc1CSc1ncnc2nc[nH]c12 | H37Rv |  |  |  |  | MIC90 | >6.25 µg/mL
CO[C@H]1/C=C/O[C@@]2(C)Oc3c(C)c(O)c4c(O)c(c5c(c4c3C2=O)NC2(CCN(CC(C)C)CC2)N=5)=NC(=O)/C(C)=C\C=C\[C@H](C)[C@H](O)[C@@H](C)[C@@H](O)[C@@H](C)[C@H](OC(C)=O)[C@@H]1C | 2218 (rifampicin-susceptible) |  |  |  |  | MIC | 0.025 µg/mL
COc1c(OCCCCBr)cc2oc3cc(OCCCCBr)c(CCC(C)C)c(O)c3c(=O)c2c1CCC(C)C | H37Ra | resazurin |  |  |  | MIC | 200 µg/mL
COc1cc2c3c(cc4cc5c(cc4c3c1OC)OCO5)N(C=O)CC2 | H37RvSr | resazurin |  |  |  | MIC | >50 µg/mL
COc1cc(C2SCC(=O)N2NC(=O)COc2ccc(NC(C)=O)cc2)cc(OC)c1OC | H37Rv |  | 12.5 µg/mL |  |  | inhibition | 0%
C=CCNc1nnc(CON=C(c2ccccc2)c2ccccc2)o1 |  |  | 12.5 µg/mL |  |  | inhibition | 7–56%
O=C(C/C(=N\NC(=O)C[n+]1ccccc1)C(=O)Nc1nc2ccc([N+](=O)[O-])cc2s1)CC(c1ccccc1)c1c(O)c2ccccc2oc1=O.[Cl-] | H37Rv | BACTEC | 12.5 µg/mL |  |  | inhibition | 2%
Cc1ccc(CSc2ncnc3nc[nH]c23)cc1 | H37Rv |  | 6.25 µg/mL |  |  | inhibition | 22%
COc1nc(N)c(NC2O[C@@H](CO)[C@@H](O)[C@@H]2O)c(=O)[nH]1 | H37Rv | resazurin |  |  |  | MIC bound | >6.25 µg/mL
COc1c(CCC(C)C)c(=O)cc2oc3cc(=O)/c(=C(\C)O)c(CCC(C)C)c3c(O)c12 | H37Ra | resazurin |  |  |  | MIC | 50 µg/mL

Blank or dashed fields: not listed here. a–b is a range or a potency band. ECn: concentration that inhibits the pathogen or its effect by n%. A number after MIC or MFC names an inhibition level or a share of isolates. MIC bound: limit read from a one-dose screen. Inhibition is in % at the dose shown (toxicity tests: loss of growth or viability).